The results in this text go back to paper PMC12806164, “Epithelial Heparan Sulfate Promotes Staphylococcus aureus Corneal Infection by Inhibiting Cathelicidins” (Proteoglycan research, 2025).

The test system of the data set is CRAMP. In words: ITC of HP and 2ODS-HP binding to CRAMP. The arrangement: species or system mouse. To be noted: 25.0°C, 12.5 μM CRAMP in cell, titrated with 25 μM HP, 50 mM HEPS pH 7.4, 150 mM NaCl. As for the experimental part:
FIGURE 4 | 2-O-sulfated heparan compounds directly bind to CRAMP with high affinity. Alexa 647-conjugated CRAMP (0.5 μM) was incubated with Affi-Gel HP beads without or with 20 μg/mL of HP, NDS-HP, 2ODS-HP, or 6ODS-HP for 1 h at room temperature. CRAMP fluorescence associated with Affi-Gel HP beads was analyzed by flow cytometry. Results are shown as (A) % CRAMP binding and (B) mean fluorescence intensity (MFI) of CRAMP binding (n = 4, ***p < 0.001, ****p < 0.0001). ITC analyses for CRAMP binding to HP were performed at 25°C using a MicroCal iTC 200 titration calorimetry. The fitted heat curves of titrating CRAMP binding to (C) HP and (D) 2ODS-HP are shown.
ITC of CRAMP binding to HP and modified HP was carried out at 25.0°C using a MicroCal iTC 200 titration calorimetry system (Malvern, UK). A stock solution of CRAMP was diluted to 12.5 μM in 50 mM HEPS, pH 7.4, 150 mM NaCl, and approximately 300 μL of this solution was loaded into the ITC cell and titrated with 25 μM of HP or 2ODS-HP in the same buffer. Briefly, titration injection of HP or 2ODS-HP consisted of a first injection of 0.4 μL followed by 18 consecutive injections of 2 μL of 0.8 s duration and with a 2.5 min interval between injections. […] The enthalpy change of binding (ΔH), the binding affinity, and the binding stoichiometry were determined.

Regarding heparin [HP], the “Binding stoichiometry (ITC)” value is reported as 25 moles of CRAMP per mole of HP. Besides, where the note is “single set of identical sites model”, the “Enthalpy change of binding (ITC)” value was -40 kcal/mol.
